Source: US20260015372A1, “Organophosphorous Compounds and Uses Thereof” (priority 2022, published 2026)

Protein sequences, listed by entry. Tags and fused reporters are not part of them. Residues count along the entry.
UniProt P06276, 29-602 limits assumed: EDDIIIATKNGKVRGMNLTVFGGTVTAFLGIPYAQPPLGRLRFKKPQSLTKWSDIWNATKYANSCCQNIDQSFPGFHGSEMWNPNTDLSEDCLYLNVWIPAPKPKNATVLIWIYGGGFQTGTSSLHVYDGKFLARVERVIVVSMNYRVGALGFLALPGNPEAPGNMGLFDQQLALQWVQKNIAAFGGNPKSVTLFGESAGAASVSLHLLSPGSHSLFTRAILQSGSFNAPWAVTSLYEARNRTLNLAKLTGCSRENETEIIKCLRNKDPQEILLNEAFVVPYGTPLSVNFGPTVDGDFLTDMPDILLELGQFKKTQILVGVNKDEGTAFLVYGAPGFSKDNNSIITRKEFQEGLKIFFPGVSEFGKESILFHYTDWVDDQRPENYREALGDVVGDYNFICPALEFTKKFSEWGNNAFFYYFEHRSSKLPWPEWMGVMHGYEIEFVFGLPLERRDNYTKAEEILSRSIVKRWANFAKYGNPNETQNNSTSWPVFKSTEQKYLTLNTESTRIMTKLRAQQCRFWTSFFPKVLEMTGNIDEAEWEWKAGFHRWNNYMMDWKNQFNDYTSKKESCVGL

Biological target: BCHE (Homo sapiens (Human), UniProt P06276)
Test: biochemical
Method: The compounds referred to herein have BCHE inhibitory activity. To determine the inhibitory values, enzymes were incubated for 2 hours in the presence of varying concentrations of compound prior to activity measurements. Activity is then measured colorimetrically upon addition of substrate and Ellman's reagent.

| Structure (SMILES) | Ki [nM] |
| --- | --- |
| CCCCOP(=O)(OCCCC)SCC(=O)NCCCCCCCCNC(=O)CSP(=O)(OCCCC)OCCCC [Compound 82, S′,S′-(octane-1,8-diylbis(azenediyl)) Bis(2-oxoethane-2,1-diyl) O,O,O′,O′-Tetrabutyl Diphosphorodithioate] | 140 |
| CCCCOP(=O)(OCCCC)SCC(=O)NCCCCCCNC(=O)CSP(=O)(OCCCC)OCCCC [Compound 80, S′,S′-(hexane-1,6-diylbis(azenediyl)) Bis(2-oxoethane-2,1-diyl) O,O,O′,O′-Tetrabutyl Diphosphorodithioate] | 67 |
| CCCCOP(=O)(OCCCC)SCC(=O)NCCCCCCCNC(=O)CSP(=O)(OCCCC)OCCCC [Compound 81, S′,S′-(heptane-1,7-diylbis(azenediyl)) bis(2-oxoethane-2,1-diyl) O,O,O′,O′-Tetrabutyl Diphosphorodithioate] | 100 |
